Assay results reported in article PMC8294059, “Identification and Immune Assessment of T Cell Epitopes in Five Plasmodium falciparum Blood Stage Antigens to Facilitate Vaccine Candidate Selection and Optimization” (Frontiers in Immunology, 2021).

Legend:
HLA-A*0201 = HLA-A*0201 (Homo sapiens, UniProt P04439, D140Y/D185E/D98H/E176V/E277Q/G131W/G231S/I119V/I121R/I166T/I218V/L300P/L318F/N151K/N90K/P208A/P217A/Q86G/Q94H/R138H/R169H/T345S); assay: In vitro class I HLA binding assay (fluorescence polarization competition)
Experimental: A cell-free class I HLA binding assay that allows for in vitro quantification of peptide-HLA binding affinity in a competition format was used. In this assay, a fluorescently labeled, high binding, control peptide is loaded onto 384-well ½-area plates along with unlabeled experimental peptides. To remove endogenous peptides and render the HLA A and B molecules receptive to binding, HLA is heated at 53°C for 15 minutes and immediately added to the assay. The mixture is then allowed to stand for three days. Once the mixture has reached steady equilibrium (at 72 hours), displacement of the high binding control peptide is measured through fluorescence polarization. Binding of experimental peptides is expressed as the percent inhibition of the labeled control peptide (experimental fluorescence / control fluorescence, multiplied by 100). The percent inhibition values for each experimental peptide (across a range of molar concentrations) are used to calculate the concentration which inhibits 50% of the labeled control peptide’s specific binding. This value is referred to as the peptide’s IC50.

HLA-A*0301 = HLA-A*0301 (Homo sapiens, UniProt P04439); details: allele A*0301; fluorescence polarization competition

| Compound | IC50 (nM), in vitro HLA binding affinity (HLA-A*0201; allele A*0201) | IC50 (HLA-A*0201; read-out: IC50 (nM), in vitro HLA binding affinity, allele A*0201) [nM] | IC50 (nM), in vitro HLA binding affinity (HLA-A*0301) |
| --- | --- | --- | --- |
| CC[C@H](C)[C@H](NC(=O)[C@H](Cc1ccc(O)cc1)NC(=O)[C@@H]1CCCN1C(=O)[C@H](CCCNC(=N)N)NC(=O)[C@H](CC(C)C)NC(=O)[C@H](Cc1ccccc1)NC(=O)[C@H](Cc1ccccc1)NC(=O)[C@H](Cc1ccc(O)cc1)NC(=O)[C@H](CCC(N)=O)NC(=O)[C@@H](N)C(C)C)C(=O)O | Non-binder |  |  |
| CC[C@H](C)[C@H](NC(=O)[C@H](Cc1ccccc1)NC(=O)[C@H](CO)NC(=O)[C@H](CC(N)=O)NC(=O)[C@H](Cc1c[nH]cn1)NC(=O)[C@H](CO)NC(=O)[C@@H]1CCCN1C(=O)[C@@H](NC(=O)[C@@H](N)Cc1ccccc1)[C@@H](C)CC)C(=O)O |  | 31000 | Non-Binder |
| CC(C)C[C@H](NC(=O)[C@H](Cc1ccccc1)NC(=O)[C@H](CC(=O)O)NC(=O)[C@H](CCCNC(=N)N)NC(=O)[C@H](CC(N)=O)NC(=O)[C@H](CO)NC(=O)[C@H](CS)NC(=O)[C@@H](NC(=O)[C@@H](N)Cc1ccccc1)C(C)C)C(=O)N[C@@H](CCCCN)C(=O)O |  |  | Non-binder |

Structures were worked out from names or drawings and are uncertain.
